Results taken from patent publication EP2123668A1, “Immunogenic polypeptides that mimic the surface polysaccharide O-antigen from serotype 2A shigella flexneri, method for obtaining the same, and their use in vaccine and diagnostic compositions” (INSTITUT PASTEUR, priority 2008, dated 2009).

System: F22-4 antibody
Test: ITC microcalorimetry
Parameters: species or system murine
Conditions: ITC binding stoichiometry; PBS buffer at 25°C
Excerpt: ITC experiments with F22-4 antibody and several chemically synthesized oligosaccharidic fragments of O-Ag 2a lead to two major results.

| SMILES | n |
| --- | --- |
| CC(=O)N[C@@H]1[C@@H](O[C@@H]2O[C@@H](C)[C@H](O[C@H]3O[C@H](CO)[C@@H](O)[C@H](O)[C@H]3O)[C@@H](O[C@@H]3O[C@@H](C)[C@H](O)[C@@H](O)[C@H]3O[C@@H]3O[C@@H](C)[C@H](O)[C@@H](O)[C@H]3O[C@@H]3O[C@H](CO)[C@@H](O)[C@H](O[C@@H]4O[C@@H](C)[C@H](O[C@H]5O[C@H](CO)[C@@H](O)[C@H](O)[C@H]5O)[C@@H](O[C@@H]5O[C@@H](C)[C@H](O)[C@@H](O)[C@H]5O[C@@H]5O[C@@H](C)[C@H](O)[C@@H](O)[C@H]5O[C@@H]5O[C@H](CO)[C@@H](O)[C@H](O[C@@H]6O[C@@H](C)[C@H](O[C@H]7O[C@H](CO)[C@@H](O)[C@H](O)[C@H]7O)[C@@H](O[C@@H]7O[C@@H](C)[C@H](O)[C@@H](O)[C@H]7O[C@@H]7O[C@@H](C)[C@H](O)[C@@H](O)[C@H]7O)[C@H]6O)[C@H]5NC(C)=O)[C@H]4O)[C@H]3NC(C)=O)[C@H]2O)[C@H](O)[C@@H](CO)O[C@H]1O [[AB(E)CD]3] | 2,03±0,02 |
| CO[C@@H]1O[C@@H](C)[C@H](O)[C@@H](O)[C@H]1O[C@@H]1O[C@@H](C)[C@H](O)[C@@H](O)[C@H]1O[C@@H]1O[C@H](CO)[C@@H](O)[C@H](O[C@@H]2O[C@@H](C)[C@H](O[C@H]3O[C@H](CO)[C@@H](O)[C@H](O)[C@H]3O)[C@@H](O)[C@H]2O)[C@H]1NC(C)=O [ECDAB] | 1,72±0,01 |
| COC1OC(C)C(OC2OC(CO)C(O)C(O)C2O)C(OC2OC(C)C(O)C(O)C2OC2OC(C)C(O)C(O)C2OC2OC(CO)C(O)C(OC3OC(C)C(OC4OC(CO)C(O)C(O)C4O)C(OC4OC(C)C(O)C(O)C4O)C3O)C2NC(C)=O)C1O (stereo not shown) [B(E)CDAB(E)C] | 2,05±0,20 |
| CC(=O)N[C@@H]1[C@@H](O[C@@H]2O[C@@H](C)[C@H](O[C@H]3O[C@H](CO)[C@@H](O)[C@H](O)[C@H]3O)[C@@H](O[C@@H]3O[C@@H](C)[C@H](O)[C@@H](O)[C@H]3O[C@@H]3O[C@@H](C)[C@H](O)[C@@H](O)[C@H]3O[C@@H]3O[C@H](CO)[C@@H](O)[C@H](O[C@@H]4O[C@@H](C)[C@H](O[C@H]5O[C@H](CO)[C@@H](O)[C@H](O)[C@H]5O)[C@@H](O[C@@H]5O[C@@H](C)[C@H](O)[C@@H](O)[C@H]5O[C@@H]5O[C@@H](C)[C@H](O)[C@@H](O)[C@H]5O)[C@H]4O)[C@H]3NC(C)=O)[C@H]2O)[C@H](O)[C@@H](CO)O[C@H]1O [[AB(E)CD]2] | 1,93±0,04 |
| COC1OC(C)C(O)C(O)C1OC1OC(CO)C(O)C(OC2OC(C)C(OC3OC(CO)C(O)C(O)C3O)C(O)C2O)C1NC(C)=O (stereo not shown) [ECDA] | 1,72±0,01 |
| CO[C@@H]1O[C@@H](C)[C@H](O)[C@@H](O)[C@H]1O[C@@H]1O[C@H](CO)[C@@H](O)[C@H](O[C@@H]2O[C@@H](C)[C@H](O[C@H]3O[C@H](CO)[C@@H](O)[C@H](O)[C@H]3O)[C@@H](O[C@@H]3O[C@@H](C)[C@H](O)[C@@H](O)[C@H]3O)[C@H]2O)[C@H]1NC(C)=O [B(E)CDA] | 1,77±0,01 |
| COC1OC(C)C(OC2OC(CO)C(O)C(O)C2O)C(OC2OC(C)C(O)C(O)C2OC2OC(C)C(O)C(O)C2OC2OC(CO)C(O)C(OC3OC(C)C(OC4OC(CO)C(O)C(O)C4O)C(OC4OC(C)C(O)C(O)C4OC4OC(C)C(O)C(O)C4OC4OC(CO)C(O)C(O)C4NC(C)=O)C3O)C2NC(C)=O)C1O (stereo not shown) [DAB(E)CDAB(E)C] | 1,80±0,03 |
